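Growth of Mycobacterium tuberculosis over 3 days (7H9 medium with glucose and tyloxapol); the read-out is not stated. Tested at 500 µM. Higher reads as more growth inhibition (inferred: compounds with an IC50 in retests scored well above the rest). Size under these conditions: about 18,000 compounds, about 1,400 of them at 50% or above in at least one test.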

The filed quantity is “Percent Effect” (%).
How 0% and 100% were set is not recorded. Most values in the screen are low, and negative values occur.
Many other results are left out here, so strong results are more common than in the screen.

{"compound": "Cc1cc(Cl)ccc1C(=O)Nc1ccc(C(N)=O)nc1", "effect": -2.313}
{"compound": "Cc1cnn(CCNc2ccc(F)cn2)c1", "effect": 53.28}
{"compound": "CCc1nc(N2CCN(C)C(CCO)C2)ncc1C", "stereo": "stereo not given", "effect": 30.18}
{"compound": "COCCNc1ncnc2c1cnn2CCC#N", "effect": 26.06}
{"compound": "CCNC(=O)c1ccc2n1CCNC2C", "stereo": "stereo not given", "effect": 6.566}
{"compound": "Cc1ccnc(NC(=O)[C@@H]2CCCO2)n1", "effect": 2.577}
{"compound": "CCCOC(=O)C(C)NC(=O)c1cccs1", "stereo": "stereo not given", "effect": 66.7}
{"compound": "Cc1ccc(C(=O)N(C)C)cc1Oc1ccncc1", "effect": -5.033}
{"compound": "Cc1nccc(C(=O)NC2CCc3nnc(C)n3C2)n1", "stereo": "stereo not given", "effect": 8.554}
{"compound": "Cc1noc(C)c1C(=O)N1CCCN(C)CC1", "effect": 5.833}
{"compound": "NC(=O)NCC(=O)NCc1ccccc1-n1ccnc1", "effect": 6.962}
{"compound": "CCOC(=O)N1CCC(N2CCC(C(N)=O)CC2)CC1", "effect": 26.19}
{"compound": "O=C(CCN1CCCC1CO)NCc1ccccc1Cl", "stereo": "stereo not given", "effect": 69.31}
{"compound": "CCOc1cc(CN(C)CCN(C)C)ccc1O", "effect": -4.907}
{"compound": "NC(=O)NCCCN1CCc2ccccc2C1", "effect": 19.28}
{"compound": "Cc1cc(C)n(C2CCCNC2)n1", "stereo": "stereo not given", "effect": 0.7527}
{"compound": "CN1CCCN(S(=O)(=O)c2ccc(Br)cn2)CC1", "effect": 13.28}
{"compound": "CN(C)c1nccc(CNc2ccc(C#N)nc2)n1", "effect": 59.65}
{"compound": "NC(=O)C1CCCN1S(=O)(=O)Cc1cc(Cl)ccc1F", "stereo": "stereo not given", "effect": 9.89}
{"compound": "COCCNC1CC1", "effect": -1.558}
{"compound": "CC(C)(C)OC(=O)NCCC(=O)NCC1CCCCN1", "stereo": "stereo not given", "effect": 6.228}
{"compound": "O=C(Nc1ncc(Br)cn1)c1ccco1", "effect": 39.18}
{"compound": "O=C(CCn1cccc1)NCc1ccco1", "effect": 56.11}
{"compound": "NCC(=O)N1CCCC(CCc2ccc(F)c(F)c2)C1", "stereo": "stereo not given", "effect": 91.74}
{"compound": "C[C@H](NC(=O)C1(C#N)CCCCC1)C(N)=O", "effect": 12.03}
{"compound": "Cc1n[nH]c(SCC(=O)NCCc2ccccc2)n1", "effect": 24.46}
{"compound": "CN(C)C(=O)c1ccc(N)nn1", "effect": 7.225}
{"compound": "O=C1C2CSCC1CN(Cc1ccccc1)C2", "effect": 1.775}
{"compound": "CC(=O)NC(C(=O)N(C)Cc1cccs1)C(C)C", "stereo": "stereo not given", "effect": 14.96}
{"compound": "CCC(C(=O)N1CCC(N)CC1)c1ccccc1", "stereo": "stereo not given", "effect": 65.52}
{"compound": "COc1cc(NC(=O)N(C)CCN(C)C)ccc1F", "effect": 18.74}
{"compound": "CC(=O)NCCNCc1ccc(C#N)cc1", "effect": 7.526}
{"compound": "COc1cccc(CNCCC(C)(C)O)n1", "effect": 15.58}
{"compound": "CN(CC(N)=O)C(CCO)c1ccccc1", "stereo": "stereo not given", "effect": 5.898}
{"compound": "OCc1c[nH]c2cccc(F)c12", "effect": 23.9}
{"compound": "CCOc1cc(C(=O)OCCCn2cccn2)ccn1", "effect": 4.539}
{"compound": "Cc1cc(C(=O)NCC2CCCCC(=O)N2)n(C)n1", "stereo": "stereo not given", "effect": -8.515}
{"compound": "CCN(CC(C)C#N)S(=O)(=O)c1ncn(C)c1Cl", "stereo": "stereo not given", "effect": 2.144}
{"compound": "Cc1ccccc1CC(=O)OCCC(N)=O", "effect": 13.46}
{"compound": "O=c1cccnn1CC(O)COCc1ccccc1F", "stereo": "stereo not given", "effect": 31.37}
{"compound": "CN(C)C(CNC(=O)C1CC1)c1ccsc1", "stereo": "stereo not given", "effect": 8.235}
{"compound": "CCS(=O)(=O)N(C)CC(=O)N1CC2(CCC2)CC1C", "stereo": "stereo not given", "effect": 3.011}
{"compound": "COc1ccc2cc(S(=O)(=O)N(C)C)ccc2c1", "effect": 2.65}
{"compound": "Cc1cc(C(=O)Nc2ccnn2C(C)C)on1", "effect": 9.074}
{"compound": "Cc1nc[nH]c1C(=O)N(C)CC1CCN(CC(C)C)C1", "stereo": "stereo not given", "effect": 4.272}
{"compound": "COCCOc1cccc(F)c1C(C)O", "stereo": "stereo not given", "effect": 4.39}
{"compound": "COCCC(=O)NCC(C)c1ccc(F)c(F)c1", "stereo": "stereo not given", "effect": 76.31}
{"compound": "O=C(CO)NC1CCN(Cc2cc(Cl)cc(Cl)c2)CC1", "effect": 4.157}
{"compound": "CCOc1cccc(CSC(C)CO)n1", "stereo": "stereo not given", "effect": 39.29}
{"compound": "CCCc1nc(C(=O)NCCS(=O)(=O)N(C)C)cs1", "effect": 28.17}
{"compound": "CC(C)C(=O)N1CCC(NC(=O)c2ccncc2)CC1", "effect": 40.06}
{"compound": "Cc1cc(C2CCCN2CC(=O)N2CCOCC2)on1", "stereo": "stereo not given", "effect": -1.466}
{"compound": "O=S1(=O)CCN(c2ncc(C(F)(F)F)cc2Cl)CC1", "effect": 0.9178}
{"compound": "CC(C)(C)OC(=O)N1CCC(n2ccc(N)n2)C1", "stereo": "stereo not given", "effect": 9.841}
{"compound": "CC(N)C(=O)Nc1ccc(-n2nccn2)cc1", "stereo": "stereo not given", "effect": 36.62}

Some entries from above, unchanged:

compound	effect
O=c1cccnn1CC(O)COCc1ccccc1F (stereo not given)	31.37
O=C(CCN1CCCC1CO)NCc1ccccc1Cl (stereo not given)	69.31
CCCc1nc(C(=O)NCCS(=O)(=O)N(C)C)cs1	28.17
O=C(CCn1cccc1)NCc1ccco1	56.11
COc1cccc(CNCCC(C)(C)O)n1	15.58
COc1cc(NC(=O)N(C)CCN(C)C)ccc1F	18.74
C[C@H](NC(=O)C1(C#N)CCCCC1)C(N)=O	12.03

Data taken from ChEMBL document CHEMBL3988442, “University of Dundee, Small-Polar-MMV Screening Library” (2021).